Measurements published in paper PMC11003484 (Journal of Enzyme Inhibition and Medicinal Chemistry, 2023).

Sequences of proteins named here, by UniProt entry; tags and fusion partners are left off. Residues count along the entry.
UniProt P33424, 960-1204 limits assumed: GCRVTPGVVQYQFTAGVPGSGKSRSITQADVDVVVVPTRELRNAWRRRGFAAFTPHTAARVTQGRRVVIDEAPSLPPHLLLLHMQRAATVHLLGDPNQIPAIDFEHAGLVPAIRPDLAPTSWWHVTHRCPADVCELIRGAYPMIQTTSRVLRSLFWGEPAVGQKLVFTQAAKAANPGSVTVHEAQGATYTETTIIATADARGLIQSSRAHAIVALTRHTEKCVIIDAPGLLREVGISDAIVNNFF

Target: HEV helicase (Hepatitis E virus genotype 1, UniProt P33424)
Details: read-out: IC50 from NTPase inhibition assay of previously published compounds; Malachite green phosphatase assay; Supplementary Table 2; unit inferred

| SMILES | IC50 |
| --- | --- |
| COc1ccc([N+](=O)[O-])cc1-n1c(C)cc(C=Nc2ccc(N3CCOCC3)cc2)c1C | 2190 nM |
| Cc1ccccc1NC(=O)C(=O)NC(C)c1ccccc1 (centres unmarked) | 1860 nM |

Structures were worked out from names or drawings and are uncertain.
